Measured values from several laboratories, pooled; numbers as filed in NIAID ChemDB.

Neighbouring rows are from separate reports. ICn is the concentration giving n% inhibition. An empty or dashed field is not shown. ECn: concentration that inhibits the pathogen or its effect by n%. Inhibition is in % at the dose shown (toxicity tests: loss of growth or viability).

compound,protein,strain,agent,tested at,test,read-out,cell line,result
CCCCC(CC)NC(=O)C(NC(C)=O)[C@H]1CC(C(=O)O)C[C@@H]1N=C(N)N,Neuraminidase,,Influenza A virus (H6N2),,target,IC50,,1.8 µM
CCCCCCCCCCCCCCCCCC(=O)OC[C@@H](COP(=O)(O)OCCNCCO[C@@]1(C(=O)O)O[C@@H]([C@H](O)[C@H](O)CO)[C@H](NC(C)=O)[C@@H](O)[C@H]1F)OC(=O)CCCCCCCCCCCCCCCCC,Sialidase,H5N3 A/DUCK/313/4/78,Influenza A virus,,target,IC50,,62.5 µM
NC(=O)c1c[se]c([C@@H]2O[C@H](CO)[C@@H](O)[C@H]2O)n1,,Nakayama,Japanese encephalitis virus,,culture,EC50,VERO,3 µg/mL
Nc1nc(=O)n([C@@H]2C=C(CO)[C@@H](O)[C@H]2O)cc1F,,7124,Variola virus,,culture,EC50,MK2,1.73 µg/mL
CCCCCCCCCCCCCCCCCC(=O)OC[C@@H](COP(=O)(O)OCCNCCO[C@@]1(C(=O)O)O[C@@H]([C@H](O)[C@H](O)CO)[C@H](NC(C)=O)[C@@H](O)[C@H]1F)OC(=O)CCCCCCCCCCCCCCCCC,Sialidase,H3N2 A/DUCK/HK/24/76,Influenza A virus,,target,IC50,,180 µM
Nc1ccn(C[C@@H](CO)OCP(=O)(O)O)c(=O)n1,,,Monkeypox virus,,culture,EC50,VERO,6.7 µg/mL
Nc1ccn([C@@H]2C=C(CO)[C@@H](O)[C@H]2O)c(=O)n1,,MPX,Monkeypox virus,,culture,EC50,VERO,<0.05 µg/mL
O=C(O)c1ccc2c(c1)nc(-c1nccs1)n2C1CCCCC1,RNA-dependent RNA polymerase,,Poliovirus,,target,IC50,,>25 µM
CCCCCCCCCCCCC/C=C/[C@@H](O)[C@H](CO[C@@H]1O[C@H](CO)[C@H](O)[C@H](OS(=O)(=O)O)[C@H]1O)NC(=O)CCCCCCCCCCCCCCCCCCCCCCC,Sialidase,H3N8 A/mallard/Alberta/23/89,Influenza A virus,200 µM,target,inhibition,,48.5%
CN(C)CCCNC(=O)[C@H](Cc1c[nH]c2ccc(O)cc12)NC(=O)c1ccc2c(c1)nc(-c1ccoc1)n2C1CCCCC1,RNA-dependent RNA polymerase,,Poliovirus,,target,IC50,,>25 µM
O=c1cnn([C@@H]2O[C@H](CO)[C@@H](O)[C@H]2O)c(=O)[nH]1,,,Monkeypox virus,,culture,EC50,3T3,6.1 µM
CCOC(=O)CCNC(=O)NC1CCCC(NC(=O)c2ccc3c(c2)nc(-c2ccoc2)n3C2CCCCC2)C1,RNA-dependent RNA polymerase,,Poliovirus,,target,IC50,,>25 µM
CC(C)(C)C(=O)OCOP(=O)(COCCn1cnc2c(N)ncnc21)OCOC(=O)C(C)(C)C,,,Monkeypox virus,,culture,EC50,VERO,>100 µg/mL
COc1ccc(C(NC(=O)c2ccc3c(c2)nc(-c2ccsc2)n3C2CCCCC2)C(=O)O)cc1OC,RNA-dependent RNA polymerase,,Poliovirus,,target,IC50,,>25 µM
CCCN(CC)C(=O)C(NC(C)=O)[C@H]1CC(C(=O)O)C[C@@H]1N=C(N)N,Neuraminidase,,Influenza A virus (H6N2),,target,IC50,,0.13 µM
O=C(O)CCC(=O)N1CCC(NC(=O)c2ccc3c(c2)nc(-c2ccoc2)n3C2CCCCC2)C1,RNA-dependent RNA polymerase,,Poliovirus,,target,IC50,,>25 µM
CCCCNC(=O)C(NC(C)=O)[C@H]1CC(C(=O)O)C[C@@H]1N=C(N)N,Neuraminidase,,Influenza A virus (H6N2),,target,IC50,,9.9 µM
COC(=O)[C@H](CCc1ccc(OCC(=O)O)cc1)NC(=O)c1ccc2c(c1)nc(-c1ccoc1)n2C1CCCCC1,RNA-dependent RNA polymerase,,Poliovirus,,target,IC50,,>25 µM
NC(=O)c1ncn([C@@H]2O[C@H](CO)[C@@H](O)[C@H]2O)n1,,HVL7990,Hantaan virus,,culture,EC50,VERO E6,16 µg/mL

2 of the rows above, restated:

compound	protein	strain	agent	tested at	test	read-out	cell line	result
CCCCCCCCCCCCC/C=C/[C@@H](O)[C@H](CO[C@@H]1O[C@H](CO)[C@H](O)[C@H](OS(=O)(=O)O)[C@H]1O)NC(=O)CCCCCCCCCCCCCCCCCCCCCCC	Sialidase	H3N8 A/mallard/Alberta/23/89	Influenza A virus	200 µM	target	inhibition		48.5%
Nc1ccn(C[C@@H](CO)OCP(=O)(O)O)c(=O)n1			Monkeypox virus		culture	EC50	VERO	6.7 µg/mL